A mixed list of measured activities; the numbers were collected in NIAID ChemDB.

All rows: growth or infection tests

ECn: concentration that inhibits the pathogen or its effect by n%. A number after MIC or MFC names an inhibition level or a share of isolates. Conditions beyond the fields shown may differ between rows. Blank or dashed fields: not listed here. Inhibition is in % at the dose shown (toxicity tests: loss of growth or viability).

structure	dose	setting	measure	strain or isolate	organism	method	cell line	result
CC(C)(O)c1cn(-c2cccc3ccccc23)nn1	2048 µg/mL	-	inhibition	URM 4817	Candida albicans	broth dilution	-	0%
O=C(Nc1cc(C(F)(F)F)cc(C(F)(F)F)c1)Nc1cc(C(F)(F)F)cc(C(F)(F)F)c1	-	-	MIC	KL21	Klebsiella pneumoniae	-	-	>300 µM
Cc1cn([C@@H]2O[C@H](CO)[C@@H](O)[C@@H]2O)c(=O)[nH]c1=O	0.01 µg/mL	-	inhibition	Asahikawa	Varicella zoster virus	plaque count	HELF	0%
OC[C@H]1O[C@@H](n2c(Cl)nc3cc(Cl)c(Cl)cc32)[C@H](O)[C@@H]1O	-	-	EC50	C4 (D341E)	Human cytomegalovirus	plaque count	-	57 µM
CC(C)(O)c1cn(-c2ccc([N+](=O)[O-])cc2)nn1	2048 µg/mL	-	inhibition	URM 4388	Candida albicans	broth dilution	-	0%
O=c1[nH]c(=O)n([C@@H]2O[C@H](CO)[C@@H](O)[C@@H]2O)cc1/C=C/Br	0.0001 µg/mL	-	inhibition	Kawaguchi	Varicella zoster virus	plaque count	HELF	33%
O=C(NNC(=O)Nc1ccccc1C(F)(F)F)Nc1cc(C(F)(F)F)cc(C(F)(F)F)c1	-	-	MIC	ES142	Escherichia coli	-	-	>422 µM
Cc1ccc(-n2c(=S)oc3ccc(Br)cc3c2=S)cc1	-	14 d	MIC	6509/96	Mycobacterium kansasii	-	-	4 µM
CCOC(=O)c1c(C)nc(NCCCCNc2ccnc3cc(Cl)ccc23)nc1-c1ccc(F)cc1	-	-	MIC99	L24/01	Cryptococcus gattii	-	-	8 µg/mL
NCS(=O)(=O)O	5 µg/mL	-	inhibition	-	Herpes simplex virus	cytopathic effect	Human conjunctiva cells	0%
CC(C)(O)c1cn(-c2ccc3ccccc3c2)nn1	2048 µg/mL	-	inhibition	URM 4262	Candida tropicalis	broth dilution	-	0%
CCCCOc1ccc(N2CCC(c3ccc(CNC(=O)c4c(CC)nc5ccc(Cl)cn45)cc3F)CC2)nc1.Cl	0.037 µM	-	inhibition	-	Mycobacterium avium	fluorescence	-	85%
N#Cc1cc([N+](=O)[O-])ccc1Oc1ccc(Cl)c(Cl)c1	0.097 µg/mL	-	inhibition	TYPE A21	Coxsackie virus	-	VERO	71%
Oc1ccc(O)c(C=Nc2ccccc2O)c1	-	-	MIC99	1913 ER	Cryptococcus gattii	-	-	8 µg/mL
Nc1ccc2c(O)cc(S(=O)(=O)[O-])cc2c1S(=O)(=O)[O-]	5 µg/mL	-	inhibition	TYPE 3	Adenovirus	cytopathic effect	Human amnion AV3 cells	0%
CCC(CC)[C@H](NC(C)=O)[C@@H]1C[C@@H](C(=O)O)C[C@H]1N=C(N)N	-	-	EC50	H1N1 A/Beijing/252/95	Influenza A virus	-	MDCK	0.56 µM
CCc1nc2ccc(Cl)cn2c1C(=O)NCc1ccc(C2CCN(c3ccc(OCC(F)(F)F)nc3)CC2)cc1F.Cl	0.03 µM	-	inhibition	-	Mycobacterium avium	fluorescence	-	85%
Nc1nc(=O)n([C@@H]2O[C@H](CO)[C@@H](O)[C@@H]2F)cc1I	0.01 µg/mL	-	inhibition	OKA	Varicella zoster virus	plaque count	HELF	11%
CCc1nc2cc(C)c(F)cn2c1C(=O)NCc1ccc(N2CCN(c3ccc(OC(F)(F)F)cc3)[C@@H](C)C2)c(F)c1	0.068 µM	-	inhibition	-	Mycobacterium avium	fluorescence	-	85%
CCCC(CCC)C(NC(C)=O)C1C(N=C(N)N)CC(C(=O)O)C1O	-	-	EC50	Influenza A/Sydney/05/97 (H3N2)	Influenza A virus	-	MDCK	0.1 µM
CCc1nc2ccc(Cl)cn2c1C(=O)NCc1ccc(C2=CCC(c3ccc(OC(F)(F)F)cc3)CC2)c(F)c1.Cl	0.0068 µM	-	inhibition	-	Mycobacterium avium	fluorescence	-	85%
Nc1ccc2cc([N+](=O)[O-])cc(S(=O)(=O)[O-])c2c1	50 µg/mL	-	inhibition	TYPE 3	Adenovirus	cytopathic effect	Human embryonic lung cells	30%
CCOC(=O)/C=C/[C@H](C[C@@H]1CCNC1=O)NC(=O)[C@@H](CC(=O)[C@@H](NC(=O)c1cc(C)on1)C(C)C)Cc1ccc(F)cc1	-	-	EC50	Isolate 36	Rhinovirus	cytopathic effect / visual reading	OHIO HELA-I	0.02 µg/mL
Nc1nc2c(ncn2C=C2CC2CO)c(=O)[nH]1	-	-	EC50	VR5406 (ganciclovir-resistant)	Human cytomegalovirus	plaque count	-	3.3 µM
O=C(NCc1ccc(Cl)cc1)c1c[nH]c2ccc(C#CCO)cc2c1=O	-	-	EC50	ADI	Human cytomegalovirus	plaque count	-	1.4 µM
CC(C)Nc1nc2cc(Cl)c(Cl)cc2n1[C@H]1O[C@@H](CO)[C@H](O)[C@@H]1O	-	-	EC50	C8302	Human cytomegalovirus	hybridisation	MRC-5	0.1 µM
NS(=O)(=O)O	50 µg/mL	-	inhibition	-	Herpes simplex virus	cytopathic effect	Human amnion AV3 cells	0%
C/C=C\[C@@H]1C[C@H](C(=O)O)N[C@H]1[C@@H](NC(C)=O)[C@](C)(CCC)OC	-	-	EC50	Isolate G26	Influenza B virus	plaque count	MDCK	<0.01 µg/mL
CCOC(=O)c1c(C)nc(NCCCCNc2ccnc3cc(Cl)ccc23)nc1-c1ccccc1[N+](=O)[O-]	-	-	MIC99	ATCC 24065	Cryptococcus gattii	-	-	8 µg/mL
CC(=O)N[C@H]1[C@H]([C@H](O)[C@H](O)CO)OC(C(=O)O)=C[C@@H]1N=C(N)N	-	-	EC50	H1N1 A/Bayern/09/95	Influenza A virus	visual reading	MDCK	3.6 µM
CCCCCCCCCCCCOC(=O)[C@]1(O)C[C@@H](O)[C@@H](O)[C@H](OC(=O)/C=C/c2ccc(O)c(O)c2)C1	-	-	MIC50	CB 108.08	Aspergillus ochraceus	absorbance	-	1900 µM
CCO/N=C/c1ccc(OCCC2CCN(c3ccc(Cl)nn3)CC2)cc1	-	-	EC50	K2207 (ICAM-1 receptor group 72)	Rhinovirus	neutral red	KB	0.077 µM
Cn1cc(C(=O)NCc2ccc(Cl)cc2)c(=O)c2cc(CN3CCOCC3)ccc21	5.2 µM	-	inhibition	PH	Human cytomegalovirus	plaque count	HFF	90%
Cc1ccc(-n2c(=O)oc3ccc(C)cc3c2=S)cc1	-	14 d	MIC	6509/96	Mycobacterium kansasii	-	-	2 µM
CCc1nc2ccc(Cl)cn2c1C(=O)NCc1ccc(-c2ccc(OC(C)C)cc2)c(F)c1	0.0094 µM	-	inhibition	-	Mycobacterium avium	fluorescence	-	85%
O=S(=O)(O)CO	5 µg/mL	-	inhibition	TYPE 3	Adenovirus	cytopathic effect	Human embryonic lung cells	0%
Cc1nc(NCCCCNc2ccnc3cc(Cl)ccc23)nc(-c2ccccc2[N+](=O)[O-])c1C(=O)OC(C)C	-	-	MIC99	C-3-1	Cryptococcus neoformans	-	-	2 µg/mL
O=C(CC(=O)Nc1ccc(F)cc1)Nc1ccc(F)cc1	-	-	MIC	KL21	Klebsiella pneumoniae	-	-	>300 µM
Cc1cn([C@@H]2O[C@H](CO)[C@@H](O)[C@@H]2F)c(=O)nc1N	0.01 µg/mL	-	inhibition	OKA	Varicella zoster virus	plaque count	HELF	50%
CCCC(CCC)C(NC(C)=O)C1CC(C(=O)O)CC1N=C(N)N	-	-	EC50	H3N2 A/X-31	Influenza A virus	-	MDCK	<0.01 µM
C=CCc1ccc(OC)c(OC)c1	-	-	MIC90	2829	Candida tropicalis	turbidity	-	350 µg/mL
Nc1c(S(=O)(=O)O)cc2cc(S(=O)(=O)O)cc(O)c2c1O	10 µg/mL	-	inhibition	-	Herpes simplex virus	cytopathic effect	Human amnion AV3 cells	0%
C=C/C(C)=C/[C@@]1(C)SC(=O)C(C)=C1O	-	-	MIC	UB1005/PEMR2.1	Escherichia coli	-	-	>600 µM
Nc1nc2c(ncn2COC(CO)CO)c(=O)[nH]1	-	-	EC50	AD169	Human cytomegalovirus	plaque count	MRC-5	6.3 µM
Cc1ccc2oc(=S)n(-c3ccc(C(F)(F)F)cc3)c(=S)c2c1	-	21 d	MIC	6509/96	Mycobacterium kansasii	-	-	16 µM
Nc1c(S(=O)(=O)[O-])cc2cc(S(=O)(=O)[O-])ccc2c1O	5 µg/mL	-	inhibition	TYPE 3	Adenovirus	cytopathic effect	Human embryonic lung cells	10%
O=c1[nH]c(=O)n([C@H]2C[C@H](O)[C@@H](CO)O2)cc1I	0.1 µg/mL	-	inhibition	Kawaguchi	Varicella zoster virus	plaque count	HELF	4%
Fc1ccc2oc(=S)n(-c3cccc(Cl)c3)c(=S)c2c1	-	14 d	MIC	6509/96	Mycobacterium kansasii	-	-	2 µM
Nc1cc(S(=O)(=O)[O-])cc2cc(S(=O)(=O)[O-])ccc12	50 µg/mL	-	inhibition	-	Herpes simplex virus	cytopathic effect	Human amnion AV3 cells	0%
Fc1ccc(-n2c(=S)oc3ccc(F)cc3c2=S)cc1	-	21 d	MIC	My 235/80	Mycobacterium kansasii	-	-	16 µM
O=[N+]([O-])c1ccc(C=Nc2ccccc2O)cc1	-	-	MIC99	29/10893	Cryptococcus gattii	-	-	16 µg/mL
Cc1ccc(-n2c(=S)oc3ccc(C)cc3c2=S)cc1	-	14 d	MIC	6509/96	Mycobacterium kansasii	-	-	2 µM
O=C(Nc1cc(C(F)(F)F)cc(C(F)(F)F)c1)NS(=O)(=O)c1ccc(OC(F)(F)F)cc1	-	-	MIC	KL21	Klebsiella pneumoniae	-	-	>200 µM
CC(C)N=C(N)/N=C(\N)NOCCCOc1cc(Cl)c(Cl)cc1Cl	-	-	MIC	1317	Mycobacterium avium complex	-	-	32 µg/mL
O=S(=O)([O-])c1cc(O)c2ccccc2c1	10 µg/mL	-	inhibition	-	Herpes simplex virus	cytopathic effect	Human amnion AV3 cells	0%
Cc1ccc(-n2cc(C(C)(C)O)nn2)cc1C	2048 µg/mL	-	inhibition	URM 3716	Candida albicans	broth dilution	-	0%

Repeating the first 3 entries:

CC(C)(O)c1cn(-c2cccc3ccccc23)nn1 ; dose: 2048 µg/mL ; measure: inhibition ; strain or isolate: URM 4817 ; organism: Candida albicans ; method: broth dilution ; result: 0%
O=C(Nc1cc(C(F)(F)F)cc(C(F)(F)F)c1)Nc1cc(C(F)(F)F)cc(C(F)(F)F)c1 ; measure: MIC ; strain or isolate: KL21 ; organism: Klebsiella pneumoniae ; result: >300 µM
Cc1cn([C@@H]2O[C@H](CO)[C@@H](O)[C@@H]2O)c(=O)[nH]c1=O ; dose: 0.01 µg/mL ; measure: inhibition ; strain or isolate: Asahikawa ; organism: Varicella zoster virus ; method: plaque count ; cell line: HELF ; result: 0%